# Measured values published in article PMC5007486, “Thermodynamic instability of viral proteins is a pathogen-associated molecular pattern targeted by human defensins” (Scientific Reports, 2016).
# System: HIV-1 Gag-Δp6
substance,measurement,setting,value
"hBD-1: human β-defensin hBD-1, prepared by solid-phase peptide synthesis (DHYNCVSSGGQCLYSACPIFTKIQGTCYRGKAKCCK; ends and bridges not checked; cysteine pairing not given here; UniProt P60022 33-68, looked up)","Effect on thermal melting of HIV-1 Gag-Δp6, reducing conditions",,had no effect on thermal melting
same,"Effect on melting profile of HIV-1 Gag-Δp6, no salt",pH 7.5,no significant changes in melting profiles

# Where no end group is shown, it is not given here.
